Tested on: B. cepacia biofilm
Settings: sessile B. cepacia on FOC surface; biocide recirculated at 9.8 mL/min for 5-6 hr; 2 ppm ozone; 24 and 48 ppm iodine; chlorine concentration only in FIG. 11 legend; means of three trials

For Chlorine, the “biocide efficacy (rank order, from cell number/3000 μm^2 and total cell area vs elapsed time)” value was “greatest for ozone, followed by chlorine”.
